Experimental findings from ChEMBL document CHEMBL1134815, “3,3a-Dihydropyrano[4,3,2-de]quinazolin-2(1H)-ones are potent non-nucleoside reverse transcriptase inhibitors” (Bioorg Med Chem Lett, 2001) are described below.

For this assay, the system named is HIV-1 reverse transcriptase (Human immunodeficiency virus 1). Nature of the assay: Inhibitory concentration against wild-type virus K103N/[…] and HIV-1 RT double mutant in whole cell antiviral assay.

Turning to `COc1c(Cl)ccc2c1C(C#CC1CC1)(C(F)(F)F)NC(=O)N2` (configuration not stated), the IC90 – broadly, the concentration at which the effect reaches the 90% level – was 0.377 µM.

With `O=C1Nc2ccc(Cl)c3c2C(C(F)(F)F)(C=C(C2CC2)O3)N1` (configuration not stated), the 90% effect concentration (IC90) turned out to be 15 µM.
